In publication PMC9299109 (Iubmb Life, 2021):

Tests used:
Assay in all cases: purified protein
[1] = tested on: Cc1cc2nc3c(=O)[nH]c(=O)nc-3n(C[C@H](O)[C@H](O)[C@H](O)CO)c2cc1C; settings: pH 7.0; 25.0 °C
[2] = tested on: Cc1cc2nc3c(=O)[nH]c(=O)nc-3n(C[C@H](O)[C@H](O)[C@H](O)COP(=O)(O)OP(=O)(O)OC[C@H]3O[C@@H](n4cnc5c(N)ncnc54)[C@H](O)[C@@H]3O)c2cc1C; settings: pH 8.0; 37.0 °C
[3] = tested on: O=P(O)(O)OP(=O)(O)O; settings: pH 8.0; 37.0 °C
[4] = tested on: Nc1ncnc2c1ncn2[C@@H]1O[C@H](COP(=O)(O)OP(=O)(O)OP(=O)(O)O)[C@@H](O)[C@H]1O
[5] = tested on: Cc1cc2nc3c(=O)[nH]c(=O)nc-3n(C[C@H](O)[C@H](O)[C@H](O)COP(=O)(O)O)c2cc1C; settings: pH 8.0; 37.0 °C

BoFADS (FAD synthase from Brucella ovis) (Brucella ovis ATCC 25840)
Km [1]: 0.6 ± 0.1 µM
kcat/Km [1]: 333000 M⁻¹ s⁻¹
Km [2]: 1.5 ± 0.5 µM
kcat/Km [2]: 15000 M⁻¹ s⁻¹
Km [3]: 12 ± 2 µM
kcat/Km [3]: 2000 M⁻¹ s⁻¹
Km ([4]; pH 7.0, 25.0 °C): 50 ± 5 µM
kcat/Km ([4]; pH 7.0, 25.0 °C): 3330 M⁻¹ s⁻¹
Km ([4]; pH 8.0, 37.0 °C): 97 ± 9 µM
kcat/Km ([4]; pH 8.0, 37.0 °C): 1170 M⁻¹ s⁻¹
Km [5]: 5.1 ± 0.4 µM
kcat/Km [5]: 23300 M⁻¹ s⁻¹
